According to patent publication US11034736B2, “Anti-viral cnidarins” (priority 2014, dated 2021):

What was measured:
HIV-1US/92/727 = experiment: Anti-HIV evaluation in PHA-stimulated human PBMCs, reverse transcriptase in supernatant; type: cell-based; settings: HIV-1US/92/727, human PBMCs
Experimental: The cultures were incubated for 7 days at 37° C./5% CO2. Efficacy of the compounds was evaluated by measuring the amount of reverse transcriptase in the culture supernatant and toxicity was evaluated using XTT to measure cell viability. AZT was evaluated in parallel as an assay control.

CEM-SS cells = experiment: Direct toxicity to uninfected CEM-SS control cells (XTT); type: cell-based, human; settings: HIV-1RF EC50
Experimental: A 2,3-bis-[2-methoxy-4-nitro-5-sulfophenyl]-2H-tetrazolium-5-carboxanilide inner salt (XTT)-tetrazolium-based assay was used to determine the anti-HIV activity of CNID-1, -2 and -3 against a T-tropic laboratory strain (HIV-1RF) in T-lymphoblastic CEM-SS cells as described previously (Gulakowski et al., J. Virol. Methods, 33: 87-100 (1991)). CEM-SS cells were maintained in RPMI 1640 media without phenol red and supplemented with 10% fetal bovine serum (BioWhittaker), 2 mM L-glutamine (BioWhittaker), and 50 μg/ml gentamicin (BioWhittaker) (complete medium). Exponentially growing cells were washed and resuspended in complete medium, and a 50 μl aliquot containing 5×10^3 cells was added to individual wells of a 96-well round-bottom microtiter plate containing serial dilutions of the respective cnidarin protein in a volume of 100 μl of medium. Stock supernatants of HIV-1RF were diluted in complete medium to yield sufficient cytopathicity (80-90% cell kill in 6 days), and a 50 μl aliquot was added to appropriate wells. Plates were incubated for 6 days at 37° C. and then stained for cellular viability using XTT.
The HIV reverse transcriptase inhibitor 3′-Azido-3′-deoxythymidine (AZT) was used as a positive control. All assays were carried out in triplicate for all viruses and cells.

Molecule	TI (therapeutic index) (HIV-1US/92/727)	Direct toxicity to uninfected control cells compared to EC50 (CEM-SS cells) [fold]
CNID-3: HIV-inhibitory protein from soft coral Synthecium sp.; 170 amino acids, 17,963 Da, SEQ ID NO: 3 (protein) GKSAYPGQITSDVPFVTFDVPFDGVNIPQDVRFTIATVNGGKLALYNAKLGDPANNTIVLESDGDHPIPGTFDDPKGRGLDYAFGGLLLFSFHNFVGHKKLYREPDSDITADFPPGLGGSSAITGEGSTVQLYTGIDFTGISEIMPVNTKRNFVVAFGNEFKSVSPTGGG	>31.25	> 1475
CNID-1: HIV-inhibitory protein from soft coral Synthecium sp.; 172 amino acids, 18,122 Da, SEQ ID NO: 1 (protein) GRATLGQLKTSTIPPVTFDVPFDGANIPQDVRFTIATVNGGKGALYNAELGESAGHTIVLESDGDHPIPGTFDPKSGRGLDYLPRGLVLFSSHNYVGNMKMYTEPDSDITADFPPGTPFGVSSAITGEGSAFQLNTGIDHTGEFEIIPPNTKRNLAGVFDNEIRSVSPTGGK	>11.71	1325
